Pooled drug test results. Numbers come from NIAID ChemDB, via PubChem.

Common to all: cytotoxicity tests; read-out: CC50

CCn is the concentration with n% toxicity to the cells. Conditions beyond the fields shown may differ between rows.

Cc1ccc(C(=O)Nc2ccc(S(=O)(=O)O)c3cc(S(=O)(=O)O)cc(S(=O)(=O)O)c23)cc1NC(=O)c1cccc(NC(=O)Nc2cccc(C(=O)Nc3cc(C(=O)Nc4ccc(S(=O)(=O)O)c5cc(S(=O)(=O)O)cc(S(=O)(=O)O)c45)ccc3C)c2)c1 ; cells: HuT-78 ; value: 55 µM
COc1cc(SC)ccc1C(=O)NC1N=C(c2ccccc2)c2ccccc2NC1=O ; cells: HEP-2 ; value: 6.3 µM
Cc1csc(C(C)(O)c2nnc(Nc3ccc(Br)c(C(F)(F)F)n3)s2)n1 ; method: resazurin / fluorescence ; cells: HepG2 ; value: 31.6 µM
CN1CCCC(CNC(=O)Cn2c(-c3ccc(Cl)cc3)c(C3CCCCC3)c3sc(C(=O)O)cc32)C1 ; cells: Huh7 ; value: >19.25 µM
CCOC(=O)c1ccc2nc(-c3ccccc3)[nH]c2c1 ; method: MTT ; cells: Vero cell ; value: >62.5 µg/mL
Cc1cccc(OC2CN(C(=O)c3ccccc3Cl)C2)c1 ; cells: HeLa ; value: 127.9 µM
O=C(O)/C=C/c1ccc(O)cc1 ; cells: BCC-1/KMC ; value: 489 µg/mL
CCC(=O)O[C@H]1C[C@H](n2cc(/C=C/Br)c(=O)[nH]c2=O)O[C@@H]1COP1(=O)OCc2cccc(C)c2O1 ; cells: P3HR-1 ; value: 282 µM
CCCCOC(=O)Cc1cc(O)cc2oc(-c3ccc(O)cc3)cc(=O)c12 ; method: MTT ; cells: HepG 2.2.15 cells ; value: >970 µg/mL
Cc1cccc2c1OP(=O)(OC[C@H]1O[C@@H](n3cc(/C=C/Br)c(=O)[nH]c3=O)C[C@@H]1OC(=O)[C@@H]1CCCN1)OC2 ; cells: HELF ; value: 94.7 µg/mL
CCC[C@@H](O)C1=C(Br)/C(=C/Br)OC1=O ; cells: KB ; value: 0.4 µg/mL
COC(=O)Nc1nc2ccc(S(=O)c3ccccc3)cc2[nH]1 ; cells: E6 ; value: >3 µg/mL
Nc1ccn([C@@H]2CS[C@H](CO)O2)c(=O)n1 ; cells: P3HR-1 ; value: 10 µM
CCOC(=O)c1ccc2nc(-c3ccc(N4CCOCC4)cc3)[nH]c2c1 ; method: MTT ; cells: Vero cell ; value: >62.5 µg/mL
O=c1ccn([C@@H]2O[C@H](CO)C[C@@H]2F)c(=O)[nH]1 ; cells: PBM ; value: >100 µM
[C-]#[N+][C@@]1(C)CC[C@H]2[C@H]3[C@H]4C(=CC(C)(C)C[C@@H]4C[C@@H]2C)CC[C@@H]31 ; cells: KB ; value: 14.5 µg/mL
O=c1[nH]cnc2c1ncn2[C@H]1CC[C@@H](CO)O1 ; method: MTT ; cells: MOLT-4/8(r)AZT(250) ; value: 2052 µM
[C-]#[N+][C@@]1(C)C2CC[C@H]3[C@H]4[C@H](CC[C@]3(C)[N+]#[C-])[C@@H](C)C[C@@H](CC1(C)C)[C@H]24 ; cells: KB ; value: 4.7 µg/mL
O=C(O)c1cc(O)cc(O)c1N=Nc1ccc(/C=C/c2ccc(N=Nc3c(O)cc(O)cc3C(=O)O)cc2S(=O)(=O)O)c(S(=O)(=O)O)c1 ; cells: AA5 ; value: 112 µg/mL
Cc1cccc2c1OP(=O)(OC[C@H]1O[C@@H](n3cc(/C=C/Br)c(=O)[nH]c3=O)C[C@@H]1OC(=O)[C@@H](N)CC(C)C)OC2 ; cells: HELF ; value: >128 µg/mL
Nc1nc(Cl)c2ncn(/C=C3/C[C@H]3CO)c2n1 ; cells: DAUDI ; value: >199 µM
Nc1nc(N)c2ncn(C[C@@H](CO)OCP(=O)(O)O)c2n1 ; cells: Primary duck hepatocytes ; value: >100 µM
O=C(Cc1cccc([N+](=O)[O-])c1)NC1N=C(c2ccccc2)c2ccccc2NC1=O ; cells: VERO ; value: 1.7 µM
CN(C)C(=O)Cn1c(-c2ccccc2)c(C2CCCCC2)c2sc(C(=O)O)cc21 ; cells: Huh7 ; value: >72.5 µM
COc1nc(N)nc2c1ncn2/C=C1/C[C@@H]1CO ; cells: DAUDI ; value: 40 µM
Nc1ccn([C@@H]2CO[C@H](CO)S2)c(=O)n1 ; cells: P3HR-1 ; value: 30 µM
O=C(NCCOc1ccccc1)c1ccccc1O ; cells: HeLa ; value: 137.2 µM
COC(=O)Nc1nc2ccc(C(=O)c3ccccc3)cc2[nH]1 ; cells: E6 ; value: 0.2 µg/mL
CC1(C)[C@@H](Br)CC[C@]2(C)O[C@H]3COC(=O)C3=C[C@@H](O)[C@@H]12 ; cells: KB ; value: 7.2 µg/mL
O=C(NC1N=C(c2ccccc2)c2ccccc2NC1=O)OCc1ccccc1 ; cells: HEP-2 ; value: 5 µM
Nc1nccc2c1ncn2[C@@H]1C=C(CO)[C@@H](O)[C@H]1O ; cells: HEL ; value: 125 µg/mL
C/C=C1/C(=O)O[C@]23C=C[C@@H]4C(C(=O)OC)=CO[C@H](O[C@@H]12)[C@@H]43 ; method: MTT ; cells: J774G8 ; value: 6.97 µg/mL
CC(C)(C)CC(C)(C)c1ccc(OCCOP(=O)([O-])OCCC[N+](C)(C)Cc2ccccc2)cc1 ; method: MTT ; cells: MCF ; value: >100 µM
Nc1nc(NC2CC2)c2ncn([C@H]3C=C[C@@H](CO)C3)c2n1 ; cells: 2.2.15 ; value: 130 µM
O=c1[nH]c(=O)n([C@H]2C[C@H](O)[C@@H](COP3(=O)OCc4c(Cl)cccc4O3)O2)cc1/C=C/Br ; cells: HELF ; value: 87.5 µg/mL
CC(C)[C@@H](C)/C=C/[C@@H](C)[C@H]1CC[C@H]2C3=CC=C4C[C@@H](O)CC[C@]4(C)[C@H]3CC[C@]12C ; method: WST ; cells: Li23 ; value: >4 µg/mL
Cc1cccc2c1OP(=O)(OC[C@H]1O[C@@H](n3cc(/C=C/Br)c(=O)[nH]c3=O)C[C@@H]1OC(=O)[C@@H](N)Cc1ccccc1)OC2 ; cells: HELF ; value: 106 µg/mL
Nc1ncnc2c1ncn2[C@@H]1CC[C@@H](O)[C@H]1O ; cells: HEL ; value: 20 µg/mL
Cc1cn([C@H]2C[C@H](N=[N+]=[N-])[C@@H](COP(=O)(OCCSC(=O)C(C)(C)C)OCCSC(=O)C(C)(C)C)O2)c(=O)[nH]c1=O ; method: MTT ; cells: MOLT-4/8 ; value: 21.8 µM
CC(C)N1CCC(N(C)C(=O)Cn2c(-c3ccc(Cl)cc3)c(C3CCCCC3)c3sc(C(=O)O)cc32)C1 ; cells: Huh7 ; value: >13 µM
CC(=O)OC(C1C=C(C)C(=O)O1)C(C)C1C2C3(O)OC4(CCC12C)C(=CCC1C(C)(C)OC2CC(=O)OC21C4O)C3=O ; method: MTT ; cells: MDA-MB-231 ; value: 3.06 µg/mL
O=c1[nH]cnc2c1ncn2[C@@H]1O[C@@H](CO)C[C@@H]1F ; cells: PBM ; value: >100 µM
Cc1cn([C@H]2C[C@H](N=[N+]=[N-])[C@@H](COP(=O)(O)OC[C@@H]3CC[C@H](n4cnc5c(=O)[nH]cnc54)O3)O2)c(=O)[nH]c1=O ; cells: BFU-E ; value: 1.41 µM
CC(C)(C)NC(=O)NC1N=C(c2ccccc2)c2ccccc2NC1=O ; cells: HEP-2 ; value: 5 µM
O=c1ccn(-c2ccc(F)cc2)c2cc(-n3ccnc3)ccc12 ; method: luminescence ; cells: HPB-ALL ; value: 209.1 µM
CN(Cc1ccccc1)Cc1c(C(=O)O)sc2c(C3CCCCC3)c(-c3ccccc3)[nH]c12 ; cells: Huh7 ; value: >85 µM
O=C(O)[C@H]1O[C@@H](Oc2cc3oc(-c4ccccc4)cc(=O)c3c(O)c2O)[C@H](O)[C@@H](O)[C@@H]1O ; cells: BCC-1/KMC ; value: 41.1 µg/mL
C[C@H](N)C(=O)O[C@H]1C[C@H](n2cc(/C=C/Br)c(=O)[nH]c2=O)O[C@@H]1COP1(=O)OCc2ccccc2O1 ; cells: HELF ; value: >128 µg/mL
COc1ccc(C(=O)NC2N=C(c3cccc(Cl)c3)c3ccccc3NC2=O)cc1 ; cells: HEP-2 ; value: 4 µM
Nc1nccc2c1ncn2C(C=O)OC(C=O)CO ; cells: HEL ; value: 16 µg/mL
Cc1cccc(Nc2nnc(C(C)(O)c3nc(C)cs3)s2)n1 ; method: resazurin / fluorescence ; cells: HepG2 ; value: >100 µM
CCCCCC(=O)O[C@H]1C[C@H](n2cc(/C=C/Br)c(=O)[nH]c2=O)O[C@@H]1COP1(=O)OCc2cccc(C)c2O1 ; cells: P3HR-1 ; value: >326 µM
O=c1[nH]cnc2c1ncn2[C@H]1CC[C@@H](CO)O1 ; cells: MM ; value: >200 µM
C[C@@]1(O)[C@H](O)[C@@H](CO)O[C@H]1n1ccc(N)nc1=O ; cells: HuH6 ; value: >30 µM
CCOC(=O)c1ccc2c(c1)nc(-c1ccc(Br)cc1)n2CCN1CCCOC1 ; method: MTT ; cells: Vero cell ; value: >62.5 µg/mL
O=C(O)P(=O)(O)O ; method: MTT ; cells: CBMC ; value: 890 µM
CCCCC1CN(C(=O)C2CCOCC2)CCC12CCN(C1(C)CCN(C(=O)c3c(C)cc(C#N)nc3C)CC1)CC2 ; cells: CEM-R5 ; value: 0.17 µM
Nc1ccn([C@@H]2CO[C@H](CO)O2)c(=O)n1 ; cells: P3HR-1 ; value: 30 µM
COCn1c(-c2ccccc2)c(C2CCCCC2)c2sc(C(=O)O)c(CNCc3ccccc3)c21 ; cells: Huh7 ; value: >32.5 µM
Nc1ccn([C@H]2CO[C@@H](CO)O2)c(=O)n1 ; cells: PBM ; value: >200 µM
Cc1cccc(OCCNC(=O)c2ccc(N(C)C)cc2Cl)c1 ; cells: HeLa ; value: 117.5 µM
Cc1cccc2c1OP(=O)(OC[C@H]1O[C@@H](n3cc(/C=C/Br)c(=O)[nH]c3=O)C[C@@H]1OC(=O)C(C)C)OC2 ; cells: P3HR-1 ; value: 104 µM
O=C(O)c1cc2c(s1)c(C1CCCCC1)c(-c1ccccc1)n2Cc1ccccc1 ; cells: Huh7 ; value: >267.5 µM
COc1ccc(-c2cc(=O)c3c(O)cc(O)cc3o2)cc1-c1c(O)cc2oc(-c3ccc(O)cc3)cc(=O)c2c1O ; method: MTT ; cells: HepG 2.2.15 cells ; value: 50 µg/mL
CN(C)CCN1Cc2ccccc2-c2c(C3CCCCC3)c3sc(C(=O)O)cc3n2CC1=O ; cells: Huh7 ; value: >9.75 µM
C[C@H]1[C@H](C)CC[C@]2(C(=O)O)CC[C@]3(C)C(=CC[C@@H]4[C@@]5(C)CC[C@H](O)C(C)(C)[C@@H]5CC[C@]43C)[C@H]12 ; cells: BCC-1/KMC ; value: 14.4 µg/mL
O=c1[nH]c(=O)n([C@@H]2O[C@H](CO)[C@@H](O)[C@@H]2O)cc1/C=C/Br ; method: MTT ; cells: CBMC ; value: 106 µM
[C-]#[N+][C@@]1(C)CC[C@H]2[C@H]3[C@@H](C(=C)CC[C@@H]31)[C@H](CC(C)(C)N=C=S)C[C@@H]2C ; cells: KB ; value: >20 µg/mL
Nc1ncnc2c1ncn2[C@H]1[C@H](O)[C@H](O)[C@@H](CO)[C@H]1F ; cells: HEL ; value: 0.038 µg/mL
O=c1[nH]c(=O)n([C@H]2C[C@H](O)[C@@H](CO)O2)cc1C12B3B4B5B6B(B3B1B42)B1B5C61 ; cells: BFU-E ; value: 57.1 µM
COc1cc(Cl)c(C(=O)NCCOc2cccc(C)c2)cc1OC ; cells: HeLa ; value: >142.9 µM
O=c1cc(-c2ccc(O)c(O)c2)oc2cc(O)cc(O)c12 ; cells: BCC-1/KMC ; value: 23.1 µg/mL
Nc1ncnc2c1ccn2[C@@H]1O[C@H](CO)[C@H](O)[C@H]1O ; cells: PRK ; value: 10 µg/mL
CC(=O)c1c(O)c(C)c(O)c2c1OC1=CC(=O)C(C(C)=O)C(=O)[C@]12C ; cells: KB ; value: 13 µg/mL
CCN1c2ncc(CCOc3cc[n+]([O-])cc3)cc2C(=O)N(C)c2ccc(Cl)nc21 ; method: MTT ; cells: C8166-45 ; value: >256 µM
O=c1[nH]c(=O)n([C@@H]2O[C@@H](CO)C[C@H]2F)cc1Br ; cells: PBM ; value: >100 µM
Cc1cn([C@H]2C[C@H](N=[N+]=[N-])[C@@H](CO)O2)c(=O)[nH]c1=O ; method: MTT ; cells: MOLT-4/8 ; value: 63.3 µM
C=C(C)[C@@H]1CC[C@]2(CO)CC[C@]3(C)[C@H](CC[C@@H]4[C@@]5(C)CC[C@H](OC(C)=O)C(C)(C)[C@@H]5CC[C@]43C)[C@@H]12 ; cells: KB ; value: >20 µg/mL
Cc1cn([C@H]2C[C@H](F)[C@@H](CO)O2)c(=O)[nH]c1=O ; cells: K562 ; value: 45 µM
CCOC(=O)c1ccc2c(c1)nc(-c1cccc(-c3ccc(F)cc3)c1)n2CCN1CCCOC1 ; method: MTT ; cells: Vero cell ; value: >62.5 µg/mL
c1ccc2[nH]c(-c3cscn3)nc2c1 ; cells: E6 ; value: >3 µg/mL
Nc1nc(N)c2ncn([C@H]3CO[C@@H](CO)O3)c2n1 ; cells: 2.2.15 ; value: 2100 µM
O=c1[nH]c(=O)n([C@H]2C[C@H](O)[C@@H](CO)O2)cc1/C=C/Br ; method: MTT ; cells: CBMC ; value: 228 µM
CCOC(=O)c1ccc2nc(-c3ccc(O)c(OC)c3)[nH]c2c1 ; method: MTT ; cells: Vero cell ; value: >62.5 µg/mL
C=C(C)[C@@H]1CC[C@]2(C)CC[C@]3(C)[C@H](CC[C@@H]4[C@@]5(C)CC[C@H](OC(C)=O)C(C)(C)[C@@H]5CC[C@]43C)[C@@H]12 ; cells: KB ; value: >20 µg/mL
O=C(O)c1cc2c(s1)c(C1CCCCC1)c(-c1ccc(Oc3ccccc3)cc1)n2CC(=O)N1CCOCC1 ; cells: Huh7 ; value: >65 µM
CCN1c2ncc(CCc3ccncc3)cc2C(=O)N(C)c2cccnc21 ; method: MTT ; cells: C8166-45 ; value: >60 µM
CC[C@H](C)[C@@H](C(=O)O)n1sc2ccccc2c1=O ; cells: Macrophage ; value: >100 µM